Earlier results on one substance are cited in PMC6086316.

For this data set, the target named is IL-1β (Homo sapiens) (UniProt P01584). The settings on record: cited from earlier work.

Broadly, the Kd is the constant that tells how readily two partners part at equilibrium. Regarding Caf1A (from UniProt P26949), the Kd is 0.14 nM.
